PubChem BioAssay AID1259414 | Drosophila RNAi Screening Center, 2018

Aim: 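Host factors increasing or decreasing Wolbachia levels in cultured fly cells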 (primary screen)
System: Drosophila JW18 cells infected with Wolbachia
Knock-down reagent: long dsRNA against Drosophila genes, 0.25 µg dsRNA per well of a 384-well plate
Duration: 5 days
Challenge: cells persistently infected with Wolbachia before knock-down; no added drug
Measured: 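Automated imaging of bacterial rRNA staining divided by host cell count, reported as plate-normalised robust z-score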
Scale: Wolbachia per cell robust z: higher = more Wolbachia per host cell than the plate typical
Call rule: 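Hit when robust z is 1.5 or more, or -1.5 or less, in at least two of three replicates; excludes dsRNAs with several or no targets, genes not expressed in JW18 and well A1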
In all, the deposit lists about 24,000 reagents; shown is a random part of those with a known target gene and a result. Over the whole deposit, about 1,210 (5%) are marked active. 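Inactive calls also include excluded dsRNAs with several or no targets, genes unexpressed in JW18, and well A1, regardless of score.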 The numbers tell different reagents against one gene apart.

With knock-down of siz #1, the record shows Wolbachia per cell robust z, rep 1 = 0.582; Wolbachia per cell robust z, rep 2 = 0.827; Wolbachia per cell robust z, rep 3 = -5.77; inactive.
With knock-down of siz #2 the results were Wolbachia per cell robust z, rep 1 = 0.155; Wolbachia per cell robust z, rep 2 = -0.545; Wolbachia per cell robust z, rep 3 = 0.635; inactive.
With knock-down of siz #3, the screen gave Wolbachia per cell robust z, rep 1 = -0.0407; Wolbachia per cell robust z, rep 2 = 0.599; Wolbachia per cell robust z, rep 3 = 0.363; inactive.
Depletion of CG4022 #1 resulted in: Wolbachia per cell robust z, rep 1 = -4.46; Wolbachia per cell robust z, rep 2 = -1.56; Wolbachia per cell robust z, rep 3 = -0.982; active.
Silencing of CG4022 #2 came out at: Wolbachia per cell robust z, rep 1 = 0.793; Wolbachia per cell robust z, rep 2 = -0.0456; Wolbachia per cell robust z, rep 3 = 0.69; inactive.

Ordered by “Wolbachia per cell robust z, rep 1” (highest first): some entries from above
siz #3 — Wolbachia per cell robust z, rep 1 = -0.0407; Wolbachia per cell robust z, rep 2 = 0.599; Wolbachia per cell robust z, rep 3 = 0.363; call = inactive
CG4022 #1 — Wolbachia per cell robust z, rep 1 = -4.46; Wolbachia per cell robust z, rep 2 = -1.56; Wolbachia per cell robust z, rep 3 = -0.982; call = active

Next entries follow:
Depletion of Trf5 resulted in: Wolbachia per cell robust z, rep 1 = -0.081; Wolbachia per cell robust z, rep 2 = -1.21; Wolbachia per cell robust z, rep 3 = -0.199; inactive.
For bbc #1 the deposit lists Wolbachia per cell robust z, rep 1 = -0.362; Wolbachia per cell robust z, rep 2 = 0.202; Wolbachia per cell robust z, rep 3 = -3.04; inactive.
bbc #2 showed Wolbachia per cell robust z, rep 1 = -0.634; Wolbachia per cell robust z, rep 2 = -0.614; Wolbachia per cell robust z, rep 3 = -0.824; inactive.
Depletion of glob3 came out at: Wolbachia per cell robust z, rep 1 = -0.954; Wolbachia per cell robust z, rep 2 = 0.302; Wolbachia per cell robust z, rep 3 = -9.05; inactive.
With knock-down of CG13465, the screen gave Wolbachia per cell robust z, rep 1 = -1.03; Wolbachia per cell robust z, rep 2 = -0.0644; Wolbachia per cell robust z, rep 3 = -0.332; inactive.
For Pgk #1 the deposit lists Wolbachia per cell robust z, rep 1 = -3.14; Wolbachia per cell robust z, rep 2 = -0.35; Wolbachia per cell robust z, rep 3 = -0.61; inactive.
Knock-down of Pgk #2 resulted in: Wolbachia per cell robust z, rep 1 = 0.659; Wolbachia per cell robust z, rep 2 = 1.55; Wolbachia per cell robust z, rep 3 = 0.227; inactive.
